# Results deposited as PubChem BioAssay AID504761 (Drosophila RNAi Screening Center, 2011)
# Screen: 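Genome-wide fly cell screen for genes dengue virus requires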 (primary screen)
# Cell system: D.Mel-2 cells from Drosophila
# Reagent: long dsRNA against Drosophila genes
# Challenge: infection with dengue virus type 2; dose and infection time not stated
# Measured: 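Per well on two replicate plates, imaging gave the percent of cells positive for viral envelope protein, ranked by infection, and a nuclear count of cells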
# Reading the numbers: infection score: higher = more virus-infected cells; cell count: higher = more cells in the well
# Hit rule: 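Very low infection ranking in both replicate wells (chance probability at most 0.065), then a retest showing infection dropped 1.5-fold or more at p below 0.05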
# Meaning of the calls: active = confirmed: knock-down lowers infection; inactive = not picked or not confirmed
# The screen tested about 22,000 reagents; shown is an unselected part of those with a known target gene and a result. Of all reagents, 116 (0.52%) were called active. 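Calls depend on retest data that are not deposited; infection was ranked per plate without normalising between plates; the unit of the infection score is not given.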 Raw values vary from plate to plate and are shown uncorrected. Reagents against one gene are numbered here. Names joined by + are all predicted targets of the reagent. Not given: the amount of reagent, the time to read-out.
"infection score, replicate 1","infection score, replicate 2","cell count, replicate 1","cell count, replicate 2",Outcome,Gene,dsRNA no.
9.46,11.5,1733,6376,inactive,CG13220,1
5.79,9.45,6525,6668,inactive,CG9084,1
18.6,4.84,3782,5729,inactive,LTV1,1
4.82,29.4,6350,4997,inactive,PTP-ER,1
1.67,7.23,5882,5949,inactive,PTP-ER,2
22.5,11.1,5978,1988,inactive,PTP-ER,3
,26.2,455,3810,inactive,Proc-R,1
1.69,1.89,6348,6439,inactive,CG31800,1
16.7,12.2,6483,6317,inactive,CG31800,2
9.36,12.1,6476,6209,inactive,CG15614,1
3.67,3.84,6314,6691,inactive,CG17219,1
9.83,14.3,5360,5139,inactive,Gr64e + Gr64d,1
4.24,3.53,5592,5500,inactive,CG42540,1
4.47,3.09,5973,6466,inactive,CG42540,2
9.39,7.06,6274,6882,inactive,CG42540,3
7.02,0.25,1211,403,inactive,CG42540,4
48,45.1,2350,2849,inactive,Polr2B,1
6.33,5.82,6553,6287,inactive,CG10752,1
12.3,9.53,5817,6277,inactive,CG5614,1

A run of entries from the list above, as a working copy:
"infection score, replicate 1","infection score, replicate 2","cell count, replicate 1","cell count, replicate 2",Outcome,Gene,dsRNA no.
4.47,3.09,5973,6466,inactive,CG42540,2
9.39,7.06,6274,6882,inactive,CG42540,3
7.02,0.25,1211,403,inactive,CG42540,4
48,45.1,2350,2849,inactive,Polr2B,1
6.33,5.82,6553,6287,inactive,CG10752,1
12.3,9.53,5817,6277,inactive,CG5614,1

The list goes on:
"infection score, replicate 1","infection score, replicate 2","cell count, replicate 1","cell count, replicate 2",Outcome,Gene,dsRNA no.
1.4,1.02,4867,5695,inactive,Pura,1
2.03,11.7,6107,6024,inactive,Pura,2
1.7,1.58,6532,5950,inactive,Pura,3
2.55,4.52,6632,6037,inactive,Pura,4
3.11,0.77,6075,6331,inactive,Pura,5
6.69,4.94,6431,5390,inactive,Pura,6
4.25,6.21,6262,6360,inactive,cold,1
0.71,4.84,6087,5562,inactive,CG42747,1
1.26,6.41,6261,5803,inactive,CG42747,2
2.18,1.5,6045,6404,inactive,CG42747,3
1.91,1.75,6013,6125,inactive,Sgs4,1
14.1,19.2,3380,5737,inactive,Sgs4,2
15.4,8.52,5928,5954,inactive,Nos,1
6.76,4.68,5648,6193,inactive,CG9967,1
15.6,5.29,6003,6291,inactive,CG9967,2
0.54,2.36,6064,6188,inactive,Dyro,1
2.81,18,6688,6095,inactive,Dyro,2
4.17,11.1,6427,5548,inactive,sas,1
4.47,5.88,6022,6289,inactive,CG17159 + CG17162,1
5.91,2.04,5859,6040,inactive,CG17159 + CG17162,2
